Data on 9 compounds can be found in BindingDB's records for 23978130.

This assay addresses Polymerase acidic protein [1-204,T86I,G186S] (Influenza A virus (A/Netherlands/2631_1202/2010(H1N1)), UniProt P13166, T86I/G186S). Briefly: Fragment Screening.
By IC50 is commonly meant the concentration that gives 50% inhibition. Low values mean greater potency in that assay, high ones weaker potency in that assay. As for `Oc1ccc(-n2ccnc2)cc1`, inhibition was half-maximal at 1000 µM (IC50).

In turn, `O=c1[nH]cc(Cl)cc1O` returned an IC50 of 25 µM. This IC50 is about 40-fold lower than that of the compound before. The value for `COC(=O)c1c(SC)nc(-c2ccccc2)[nH]c1=O` was 250 µM. The value for `Nc1ccc(Br)nc1` was over 1000 µM. Take `Nc1ccncc1Br`: the half-inhibitory concentration (IC50) is over 1000 µM. The value for `Nc1c(C(=O)O)sc2ncccc12` was over 1000 µM; that for `Brc1cnc2ccccn12` was over 1000 µM; that for `O=C(O)c1ccc(-n2cncn2)cc1` was over 1000 µM.

For `CN1CCc2cc(O)c(O)cc2C1Cc1ccc(O)c(O)c1` (centres undefined), it took 2 µM to reach half-maximal inhibition (IC50).
